Measurements reported in PubChem BioAssay AID504761 (Drosophila RNAi Screening Center, 2011).

Aim: 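Genome-wide fly cell screen for genes dengue virus requires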 (primary screen)
Cells: D.Mel-2 cells from Drosophila
Reagents: long dsRNA against Drosophila genes
Treatment: infection with dengue virus type 2; dose and infection time not stated
Measured: 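Per well on two replicate plates, imaging gave the percent of cells positive for viral envelope protein, ranked by infection, and a nuclear count of cells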
Scale: infection score: higher = more virus-infected cells; cell count: higher = more cells in the well
Rule for the call: 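Low infection ranks in the two replicates (chance level up to 0.065) followed by a retest with a 1.5-fold or larger significant decrease, p below 0.05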
Calls: active = confirmed: knock-down lowers infection; inactive = not picked or not confirmed
The screen tested about 22,000 reagents; below is a random part of those that have a named target and a result. Of all reagents, 116 (0.52%) are marked active. 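Calls depend on retest data that are not deposited; infection was ranked per plate without normalising between plates; the unit of the infection score is not given.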 Raw values vary from plate to plate and are shown uncorrected. Reagents against one gene are numbered here. Not all columns of the deposit are shown. The record does not give: the amount of reagent, the time to read-out.

| infection score, replicate 1 | infection score, replicate 2 | cell count, replicate 1 | activity call | gene | reagent no. |
| --- | --- | --- | --- | --- | --- |
| 7.03 | 14.6 | 6007 | inactive | CG1105 | 1 |
| 4.97 | 27.2 | 7422 | inactive | CG1105 | 2 |
| 1.62 | 0.8 | 6286 | inactive | dally | 1 |
| 6.19 | 12.2 | 6441 | inactive | dally | 2 |
| 9.5 | 2.34 | 6442 | inactive | CSN3 | 1 |
| 7.3 | 2.14 | 5531 | inactive | CSN3 | 2 |
| – | 1.74 | 425 | inactive | CG18635 | 1 |
| 6.11 | 0.99 | 5567 | inactive | CG18635 | 2 |
| 3.68 | 6.15 | 6544 | inactive | CG34375 | 1 |
| 3.1 | 2.05 | 6590 | inactive | CG34375 | 2 |
| 4.72 | 9.25 | 5870 | inactive | CG34375 | 3 |
| 8.86 | 29.7 | 6229 | inactive | tpr | 1 |
| 7.73 | 22.4 | 5977 | inactive | tpr | 2 |
| 3.65 | 1.48 | 5619 | inactive | CG7236 | 1 |
| 2.07 | 16.9 | 6706 | inactive | CG7236 | 2 |
| 2.94 | 0.97 | 6257 | inactive | CG14830 | 1 |
| 2.28 | 1.78 | 6454 | inactive | CG14830 | 2 |
| 1.96 | 4.85 | 7032 | inactive | CG14830 | 3 |
| 14.2 | 1.92 | 5033 | inactive | CG10864 | 1 |
| 19 | – | 5205 | inactive | NimB5 | 1 |
| 1.12 | 16.6 | 5915 | inactive | SecS | 1 |
| 16.5 | 8.14 | 6748 | inactive | Nak | 1 |
| 10.4 | – | 6554 | inactive | Nak | 2 |

Records above whose target name starts with T or t:
| infection score, replicate 1 | infection score, replicate 2 | cell count, replicate 1 | activity call | gene | reagent no. |
| --- | --- | --- | --- | --- | --- |
| 8.86 | 29.7 | 6229 | inactive | tpr | 1 |
| 7.73 | 22.4 | 5977 | inactive | tpr | 2 |
